# Sequence variants of PSTVd stem 26 after infection

The measurements come from Wu et al. 2024 (doi:10.1371/journal.ppat.1012142).

PSTVd intermediate strain, stem 26: wild type AGGGUACCCU, pool pattern AGGGUNNCNN; upper and lower strand joined, each 5' to 3', the first 5 letters being the upper strand.

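Three N. benthamiana plants were inoculated with the whole mutant pool. Progeny were sequenced from the inoculated region (day 5), the margin of the inoculated leaf (day 10) and systemic leaves (day 12).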

Numbers give reads per thousand; 0 = not seen among the reads, higher = more abundant.
Each value is the mean of three plants.
"Pool" is the share in the plasmid pool used as inoculum, on the same scale.
The inoculated region was read from the minus strand, the other sites from the plus strand.
Wild type was 44.9 per thousand in the pool and the most common sequence in every sample (inoculated region 297, 323, 447; leaf margin 793, 829, 846; systemic leaves 974, 853, 877).

{"sequence": "AGGGUGGCCA", "pool": "3.45", "inoculated region": 0.927, "leaf margin": 0.00992, "systemic leaves": 0}
{"sequence": "AGGGUGGCAC", "pool": "4.08", "inoculated region": 2.95, "leaf margin": 0.695, "systemic leaves": 0.719}
{"sequence": "AGGGUUACGA", "pool": "2.76", "inoculated region": 0.677, "leaf margin": 0, "systemic leaves": 0}
{"sequence": "AGGGUGACCC", "pool": "0.197", "inoculated region": 0.976, "leaf margin": 0.0186, "systemic leaves": 0.107}
{"sequence": "AGGGUGGCGC", "pool": "3.75", "inoculated region": 2.55, "leaf margin": 1.90, "systemic leaves": 0.00551}
{"sequence": "AGGUUGACUC", "pool": "1.07", "inoculated region": 0.708, "leaf margin": 0.00871, "systemic leaves": 0}
{"sequence": "AGGGUAACCG", "pool": "2.86", "inoculated region": 0.579, "leaf margin": 0.00742, "systemic leaves": 0.0180}
{"sequence": "AGGGUGCUCA", "pool": "0.0493", "inoculated region": 1.08, "leaf margin": 0.703, "systemic leaves": 0}
{"sequence": "AGGGUCUCUA", "pool": "3.42", "inoculated region": 2.57, "leaf margin": 0.733, "systemic leaves": 0.00551}
{"sequence": "AGGGUUACUG", "pool": "7.25", "inoculated region": 3.00, "leaf margin": 0.0174, "systemic leaves": 0.442}
{"sequence": "AGGGUGGCCU", "pool": "3.55", "inoculated region": 0.898, "leaf margin": 0.00742, "systemic leaves": 0.00475}
{"sequence": "AGGGUUACAC", "pool": "4.65", "inoculated region": 2.02, "leaf margin": 0.00992, "systemic leaves": 0.0551}
{"sequence": "AGGGUUGUCC", "pool": "0.0658", "inoculated region": 1.26, "leaf margin": 0.646, "systemic leaves": 0}
{"sequence": "AGGGUAGCAA", "pool": "2.88", "inoculated region": 0.765, "leaf margin": 0, "systemic leaves": 0.00475}
{"sequence": "AGGGUAUCAA", "pool": "2.86", "inoculated region": 0.756, "leaf margin": 0, "systemic leaves": 0}
{"sequence": "AGGGUUGCGG", "pool": "6.33", "inoculated region": 2.88, "leaf margin": 0.689, "systemic leaves": 0.00475}
{"sequence": "AGGGUCCCAU", "pool": "3.44", "inoculated region": 0.884, "leaf margin": 0.169, "systemic leaves": 0}
{"sequence": "AGGGUAUCCU", "pool": "3.49", "inoculated region": 37.0, "leaf margin": 13.8, "systemic leaves": 17.1}
{"sequence": "AGGGUAGCGC", "pool": "3.70", "inoculated region": 1.38, "leaf margin": 0, "systemic leaves": 0}
{"sequence": "AGGGUUACAA", "pool": "2.66", "inoculated region": 0.787, "leaf margin": 0, "systemic leaves": 0.0103}
{"sequence": "AGGUUGCCAU", "pool": "0.0493", "inoculated region": 0.00788, "leaf margin": 0, "systemic leaves": 0}
{"sequence": "AGGGUAUCGU", "pool": "3.29", "inoculated region": 1.27, "leaf margin": 0.0198, "systemic leaves": 0.00623}
{"sequence": "AGGGUUGCGA", "pool": "4.64", "inoculated region": 1.92, "leaf margin": 0, "systemic leaves": 0.00475}
{"sequence": "AGGGUCCCGC", "pool": "6.56", "inoculated region": 4.38, "leaf margin": 0.297, "systemic leaves": 0.00623}
{"sequence": "AGGGUUUACA", "pool": "0.0493", "inoculated region": 0.00788, "leaf margin": 0, "systemic leaves": 0}
{"sequence": "AGGGUUACUC", "pool": "3.85", "inoculated region": 2.92, "leaf margin": 0.740, "systemic leaves": 0.320}
{"sequence": "AGGGUGUGCG", "pool": "0.0493", "inoculated region": 1.39, "leaf margin": 0.735, "systemic leaves": 0}
{"sequence": "AGGGUGUCCG", "pool": "4.93", "inoculated region": 3.58, "leaf margin": 0.673, "systemic leaves": 0.270}
{"sequence": "AGGGUGUCGA", "pool": "2.62", "inoculated region": 2.30, "leaf margin": 0.646, "systemic leaves": 0.00475}
{"sequence": "AGGGUAACAC", "pool": "3.06", "inoculated region": 0.508, "leaf margin": 0, "systemic leaves": 0.00551}
{"sequence": "AGGGUCCCUU", "pool": "2.80", "inoculated region": 0.999, "leaf margin": 0.00871, "systemic leaves": 0.0378}

Extract of 3 entries:

{"sequence": "AGGGUGCUCA", "pool": "0.0493", "inoculated region": 1.08, "leaf margin": 0.703, "systemic leaves": 0}
{"sequence": "AGGGUCUCUA", "pool": "3.42", "inoculated region": 2.57, "leaf margin": 0.733, "systemic leaves": 0.00551}
{"sequence": "AGGGUUGCGA", "pool": "4.64", "inoculated region": 1.92, "leaf margin": 0, "systemic leaves": 0.00475}

With 23,251-70,159 reads a sample, very low values are single reads.
The authors trace changes outside the varied positions to PCR and sequencing errors or to mutation in the plant; presence does not show that a variant is infectious alone.